Data on eleven compounds can be found in patent publication US12172959B2, “Mono- or di-substituted indole derivatives as dengue viral replication inhibitors” (priority 2015, dated 2024).

What all share (type): cell-based, Dengue virus
Data set [1] concerns DENV-4 strain SG/06K2270DK1/2005 (Eden). In words: Tetravalent RT-qPCR assay Protocol A, serotype 4 EDEN. The following applies: RT-qPCR serotype 4 EDEN, ratio CC50 / EC50. As to the method: (§1) The antiviral activity of the compounds of the invention was tested against DENV-1 strain TC974#666 (NCPV; Table 6), DENV-2 strain 16681 (Table 7), DENV-3 strain H87 (NCPV; Table 8) and DENV-4 strains H241 (NCPV; Table 9A) and SG/06K2270DK1/2005 (Eden; Table 9B) in a RT-qPCR assay. Therefore, Vero cells were infected with either DENV-1, or -2, or -3, or -4 in the presence or absence of test compounds. At day 3 post-infection, the cells were lysed and cell lysates were used to prepare cDNA of both a viral target (the 3′UTR of DENV; Table 2) and a cellular reference gene (β-actin, Table 2). Subsequently, a duplex real time PCR was performed on a Lightcycler480 instrument. The generated Cp value is inversely proportional to the amount of RNA expression of these targets. Inhibition of DENV replication by test compound results in a shift of Cp's for the 3′UTR gene. On the other hand, if a test compound is toxic to the cells, a similar effect on β-actin expression will be observed. The comparative ΔΔCp method is used to calculate EC50, which is based on the relative gene expression of the target gene (3′UTR) normalized with the cellular housekeeping gene (β-actin).
(§2) The culture medium consisted of minimal essential medium supplemented with 2% of heat-inactivated fetal calf serum, 0.04% gentamycin (50 mg/mL) and 2 mM of L-glutamine. Vero cells, obtained from ECACC, were suspended in culture medium and 75 μL/well was added in 96-well plates (10000 cells/well), which already contain the antiviral compounds. […] In addition, each plate contains wells which are assigned as virus controls (containing cells and virus in the absence of compound) and cell controls (containing cells in the absence of virus and compound). Once the cells were added in the plates, the plates were incubated in a fully humidified incubator (37° C., 5% CO2) until the next day. Dengue viruses serotype-1, 2, 3 and 4 were diluted in order to obtain a Cp of ˜22-24 in the assay. Therefore, 25 μL of virus suspension was added to all the wells containing test compound and to the wells assigned as virus control. In parallel, 25 μL of culture medium was added to the cell controls. Next, the plates were incubated for 3 days in a fully humidified incubator (37° C., 5% CO2). After 3 days, the supernatant was removed from the wells and the cells were washed twice with ice-cold PBS (˜100 μL). The cell pellets within the 96-well plates were stored at −80° C. for at least 1 day. Next, RNA was extracted using the Cells-to-CT™ lysis kit, according to the manufacturer's guideline (Life Technologies). The cell lysates can be stored at −80° C. or immediately used in the reverse transcription step.
(§3) In preparation of the reverse transcription step, mix A (table 3A) was prepared and 7.57 μL/well was dispensed in a 96-well plate. After addition of 5 μL of the cell lysates, a five minute denaturation step at 75° C. was performed (table 3B). Afterwards, 7.43 μL of mix B was added (table 3C) and the reverse transcription step was initiated (table 3D) to generate cDNA.
(§4) Finally, a RT-qPCR mix was prepared, mix C (table 4A), and 22.02 μL/well was dispensed in 96-well LightCycler qPCR plates to which 3 μL of cDNA was added and the qPCR was performed according to the conditions in table 4B on a LightCycler 480.
(§5) Using the LightCycler software and an in-house LIMS system, dose response curves for each compound were calculated and the half maximal effective concentration (EC50) and the half maximal cytotoxic concentration (CC50) were determined.

The subject of data set [2] is DENV-2 16681 strain. In words: DENV-2 antiviral assay (eGFP fluorescence, Vero cells). The following applies: SI=CC50/EC50, DENV-2 antiviral assay. The procedure: The antiviral activity of all the compounds of the invention was tested against the DENV-2 16681 strain which was labeled with enhanced green fluorescent protein (eGPF; Table 1). The culture medium consists of minimal essential medium supplemented with 2% of heat-inactivated fetal calf serum, 0.04% gentamycin (50 mg/mL) and 2 mM of L-glutamine. Vero cells, obtained from ECACC, were suspended in culture medium and 25 μL was added to 384-well plates (2500 cells/well), which already contain the antiviral compounds. Typically, these plates contain a 5-fold serial dilution of 9 dilution steps of the test compound at 200 times the final concentration in 100% DMSO (200 nL). […] Finally, each plate contains wells which are assigned as virus controls (containing cells and virus in the absence of compound), cell controls (containing cells in the absence of virus and compound) and medium controls (containing medium in the absence of cells, virus and compounds). To the wells assigned as medium control, 25 μL of culture medium was added instead of Vero cells. Once the cells were added to the plates, the plates were incubated for 30 minutes at room temperature to allow the cells to distribute evenly within the wells. Next, the plates were incubated in a fully humidified incubator (37° C., 5% CO2) until the next day. Then, DENV-2 strain 16681, labeled with eGFP, was added at a multiplicity of infection (MOI) of 0.5. Therefore, 15 μL of virus suspension was added to all the wells containing test compound and to the wells assigned as virus control. In parallel, 15 μL of culture medium was added to the medium and cell controls. Next, the plates were incubated for 3 days in a fully humidified incubator (37° C., 5% CO2). At the day of the read out, the eGFP fluorescence was measured using an automated fluorescence microscope at 488 nm (blue laser). Using an in-house LIMS system, inhibition dose response curves for each compound were calculated and the half maximal effective concentration (EC50) was determined. Therefore, the percent inhibition (I) for every test concentration is calculated using the following formula: I=100*(ST−SCC)/(SVC−SCC); ST, SCC and SVC are the amount of eGFP signal in the test compound, cell control and virus control wells, respectively. The EC50 represents the concentration of a compound at which the virus replication is inhibited with 50%, as measured by a 50% reduction of the eGFP fluorescent intensity compared to the virus control. The EC50 is calculated using linear interpolation.

Data set [3] deals with DENV-1 strain TC974#666. Briefly: Tetravalent RT-qPCR assay Protocol A, serotype 1. The following applies: RT-qPCR serotype 1 TC974#666. As to the method:
as §1, §2, §3, §4, §5

For data set [4], the system named is DENV-4 strain H241. In words: Tetravalent RT-qPCR assay Protocol A, serotype 4 H241. The following applies: RT-qPCR serotype 4 H241. As to the method:
as §1, §2, §3, §4, §5
(In qPCR the cycle at which signal appears reflects the starting amount.)

Data set [5] relates to DENV-3 strain H87. In words: Tetravalent RT-qPCR assay Protocol A, serotype 3. Particulars: RT-qPCR serotype 3 H87. As to the method:
as §1, §2, §3, §4, §5

Data set [6] concerns DENV-2 strain 16681. Briefly: Tetravalent RT-qPCR assay Protocol A, serotype 2. The following applies: RT-qPCR serotype 2 16681. As to the method:
as §1, §2, §3, §4, §5

SMILES strings stand for the structures.

As for `COc1cc(NC(C(=O)c2c[nH]c3cc(F)ccc23)c2ccc(Cl)cc2OC)cc(S(C)(=O)=O)c1` (single isomer, unassigned) [Compound 1A, 2-(4-chloro-2-methoxyphenyl)-1-(6-fluoro-1H-indol-3-yl)-2-((3-methoxy-5-(methylsulfonyl)phenyl)amino)ethanone], the SI in data set [1] is 1927; in data set [2], 19700.
The corresponding values for `COc1cc(NC(C(=O)c2c[nH]c3c(C)c(F)ccc23)c2ccc(Cl)cc2OC)cc(S(C)(=O)=O)c1` (single isomer, unassigned) [Compound 2A, 2-(4-chloro-2-methoxyphenyl)-1-(6-fluoro-7-methyl-1H-indol-3-yl)-2-((3-methoxy-5-(methylsulfonyl)phenyl)amino)ethanone] are 3913 and 22000.
In the case of `COc1cc(NC(C(=O)c2c[nH]c3cc(OC)ccc23)c2ccc(Cl)cc2OC)cc(S(C)(=O)=O)c1` (single isomer, unassigned) [Compound 3A, 2-(4-chloro-2-methoxyphenyl)-1-(6-methoxy-1H-indol-3-yl)-2-((3-methoxy-5-(methylsulfonyl)phenyl)amino)ethanone], the SI in data set [1] came out at 1802; in data set [3] it was 1360; in data set [4], 37; in data set [2], 29800; in data set [5] it was 67; in data set [6], 9970.
Take `COc1cc(NC(C(=O)c2c[nH]c3cc(OC)c(C)cc23)c2ccc(Cl)cc2OC)cc(S(C)(=O)=O)c1` (single isomer, unassigned) [Compound 4A, 2-(4-chloro-2-methoxyphenyl)-2-((3-methoxy-5-(methyl-sulfonyl)phenyl)amino)-1-(6-methoxy-5-methyl-1H-indol-3-yl)ethanone]: the SI in data set [1] was above 4520; in data set [2], 16900.
Turning to `COc1cc(NC(C(=O)c2c[nH]c3cc(OC)c(F)cc23)c2ccc(Cl)cc2OC)cc(S(C)(=O)=O)c1` (single isomer, unassigned) [Compound 5A, 2-(4-chloro-2-methoxyphenyl)-1-(5-fluoro-6-methoxy-1H-indol-3-yl)-2-((3-methoxy-5-(methylsulfonyl)phenyl)amino)ethanone], the SI was determined as 1878 in data set [1] and 12900 in data set [2].
As to `COc1cc(NC(C(=O)c2c[nH]c3c(C)c(OC)ccc23)c2ccc(Cl)cc2OC)cc(S(C)(=O)=O)c1` (single isomer, unassigned) [Compound 6A, 2-(4-chloro-2-methoxyphenyl)-2-((3-methoxy-5-(methyl-sulfonyl)phenyl)amino)-1-(6-methoxy-7-methyl-1H-indol-3-yl)ethanone], the SI in data set [1] is on record as above 24085; in data set [2], above 65500.
Regarding `COc1cc(NC(C(=O)c2c[nH]c3cc(F)c(C)cc23)c2ccc(Cl)cc2OC)cc(S(C)(=O)=O)c1` (single isomer, unassigned) [Compound 7B, 2-(4-chloro-2-methoxyphenyl)-1-(6-fluoro-5-methyl-1H-indol-3-yl)-2-((3-methoxy-5-(methylsulfonyl)phenyl)amino)ethanone], the SI in data set [3] was found to be 6600; in data set [4], 53; in data set [2], 18500; in data set [5], 240; in data set [6], 23600.
Regarding `COc1cc(NC(C(=O)c2c[nH]c3ccc(C(F)(F)F)cc23)c2ccc(Cl)cc2OC)cc(S(C)(=O)=O)c1` (single isomer, unassigned) [Compound 8B, 2-(4-chloro-2-methoxyphenyl)-2-((3-methoxy-5-(methyl-sulfonyl)phenyl)amino)-1-(5-(trifluoromethyl)-1H-indol-3-yl)ethanone], the SI is 3130 in data set [3]; 122 in data set [4]; above 40900 in data set [2]; 609 in data set [5]; 23400 in data set [6].
As to `COc1cc(NC(C(=O)c2c[nH]c3ccc(OC(F)(F)F)cc23)c2ccc(Cl)cc2OC)cc(S(C)(=O)=O)c1` (single isomer, unassigned) [Compound 9A, 2-(4-chloro-2-methoxyphenyl)-2-((3-methoxy-5-(methyl-sulfonyl)phenyl)amino)-1-(5-(trifluoromethoxy)-1H-indol-3-yl)ethanone], the SI in data set [3] is reported as 13300; in data set [4] it was 121; in data set [2], above 37500; in data set [5], 474; in data set [6], 31700.
For `COc1cc(NC(C(=O)c2c[nH]c3cc(OC)c(OC(F)(F)F)cc23)c2ccc(Cl)cc2OC)cc(S(C)(=O)=O)c1` (single isomer, unassigned) [Compound 10A, 2-(4-chloro-2-methoxyphenyl)-2-((3-methoxy-5-(methylsulfonyl)phenyl)amino)-1-(6-methoxy-5-(trifluoromethoxy)-1H-indol-3-yl)ethanone], in that order: 5670, 127, 22600, 280 and 28200.
For `COc1cc(NC(C(=O)c2c[nH]c3c(C)cc(OC(F)(F)F)cc23)c2ccc(Cl)cc2OC)cc(S(C)(=O)=O)c1` (single isomer, unassigned) [Compound 11A, 2-(4-chloro-2-methoxyphenyl)-2-((3-methoxy-5-(methylsulfonyl)phenyl)amino)-1-(7-methyl-5-(trifluoromethoxy)-1H-indol-3-yl)ethanone], in that order: above 22100, above 250, 30100, above 2630 and above 69000.
